The record followed here is patent publication US9963660B2, “Method of cleaning with enhanced bacteriostatic action using a composition of alcohol and lactate esters” (Vertec Biosolvent, Inc., priority 2015, dated 2018).

The nature of this data set: Peanut butter removal from coated metal mesh strips (cleaning/solvating action). The note with it: neat solvents, 40° C., 20 minutes dip, 90 minutes drying. The source says: Peanut butter is a complex mixture of fats, carbohydrates and proteins that are emulsified in processing equipment under controlled conditions. Because of its composition that contains all the major food groups and because the product is made by controlled food processing methods, peanut butter was chosen for an initial cleaning examination. Commercially available […]® peanut butter made by Best Foods Company was used. Commercially available metal screen mesh (size 20 mesh) was cut into small (25 mm×75 mm), equal sized strips that were dipped into heated (about 50° C.) peanut butter and then drip dried in air. […] The strips were then dried under forced air at room temperature and their weights were measured periodically. After 90 minutes of drying the test results were evaluated to determine the comparative differences between the effects of the solvent compositions. Commercial grade of ethanol is typically denatured by small quantities of additives. Ethyl acetate is an approved denaturant for ethanol and it is non-toxic for food and biological related applications. In all of the examples for this invention the ethanol used was denatured by about 5% (w/w) ethyl acetate.

Compound `CCOC(=O)C(C)O` (centres unmarked) [Ethyl lactate] registered a Weight loss of 0.131 g.
With `CCO` [Ethanol] the figure was 0.41 g.
